Target: HIV-1 protease (Human immunodeficiency virus type 1 group M subtype B, UniProt P04585)
Details: read-out: IC50 Ref

## pepstatin A [reference compound]
  IC50: 1.7 µM
